Measured values from several laboratories, pooled; numbers as filed in NIAID ChemDB.

Shared fields: growth or infection tests; species: HIV-1; cells: MT-4; method: cytopathic effect / MTT; measure: fold resistance

Neighbouring rows are from separate reports.

smiles,changes,strain,result
COc1ccc(/C=C/CSc2nc(C(C)c3c(Cl)cccc3Cl)c(C)c(=O)[nH]2)cc1,RT-Y188L,NNRTI-resistant,14000
CCCc1nc(-c2ccc(S(=O)(=O)N(CC(C)C)C[C@@H](O)[C@H](Cc3ccccc3)NC(=O)O[C@H]3CO[C@H]4OCC[C@H]43)cc2)co1,PR-L010F M046I M071V I084V,-,219
CCc1c(Cc2cc(C)cc(C)c2)n(COCC2CC=CCC2)c(=O)[nH]c1=O,RT-Y181C,NNRTI-resistant (RT Y181C) N119,>5000
COc1ccc(/C=C/CSc2nc(Cc3c(F)cccc3F)c(C)c(=O)[nH]2)cc1,RT-K103N,NNRTI-resistant,>9139
CNc1nc2ccc(S(=O)(=O)N(CC(C)C)C[C@@H](O)[C@H](Cc3ccccc3)NC(=O)COc3c(C)cc([N+](=O)[O-])cc3C)cc2o1,PR-L010F M046I M071V I084V,LAI,55
N#Cc1cc2[nH]c3ccccc3c2n(-c2ccc([N+](=O)[O-])cc2)c1=O,RT-K103N,B,4
Cc1ccc(Oc2cn(C)c(=O)c(Nc3ccc(F)cc3)n2)c(C)c1,RT-L100I,-,>7.95
Cc1cn([C@H]2C=C[C@@H](CO)O2)c(=O)[nH]c1=O,RT-T215Y,HXB2,1.1
CCCc1c(Cc2ccccc2)n(COC/C(C)=C/c2ccccc2)c(=O)[nH]c1=O,RT-Y181C,NNRTI-resistant (RT Y181C) N119,>2500
COc1cccc(-c2nc(-c3ccc(S(=O)(=O)N(CC(C)C)C[C@@H](O)[C@H](Cc4ccccc4)NC(=O)O[C@H]4CO[C@H]5OCC[C@H]54)cc3)co2)c1,PR-L010F M046I M071V I084V,-,77
O=c1cc(Cc2ccc3ccccc3c2)nc(SC2CCCC2)[nH]1,RT-Y181C,Nev^R(RT-Y181C),>58.8
CCc1c(C)[nH]c(=O)c(Sc2ccccc2)c1Oc1cc(C)cc(C)c1,RT-K103N Y181C,-,158
CC(=O)Nc1ncc(-c2ccc(S(=O)(=O)N(CC(C)C)C[C@@H](O)[C@H](Cc3ccccc3)NC(=O)O[C@H]3CO[C@H]4OCC[C@H]43)cc2)[nH]1,PR-L010F M046I M071V I084V,-,7.2
CNc1nc2ccc(S(=O)(=O)N(CC(C)C)C[C@@H](O)[C@H](Cc3ccccc3)NC(=O)OCc3cncs3)cc2o1,PR-L010F M046I M071V I084V,LAI,36
Cn1c2ccccc2c2c1cc(C#N)c(=O)n2-c1ccc([N+](=O)[O-])cc1,RT-K103N Y181C,H,5
Cc1cc(C)c(Oc2nc(Nc3ccc(C#N)cc3)c(=O)n(C)c2C)c(C)c1,RT-L100I,-,10
CCCc1c(Cc2cc(C)cc(C)c2)n(COC/C(C)=C/c2ccccc2)c(=O)[nH]c1=O,RT-K103N Y181C,NNRTI-resistant (RT K103N Y181C) A17,>3333
CCc1c(C)[nH]c(=O)c(C(C)C)c1Oc1cc(C)cc(C)c1,RT-Y181C,-,2
Cc1ccccc1Oc1nc(Nc2ccc(C#N)cc2)c(=O)n(C)c1C,RT-Y188L,-,126.2
CCOCn1c(Cc2ccccc2)c(C(C)C)c(=O)[nH]c1=O,RT-K103N Y181C,NNRTI-resistant (RT K103N Y181C) A17,>5000
CCc1c(C)[nH]c(=O)c(CC)c1Oc1cc(C)cc(C)c1,RT-Y188L,-,20
CC(C)CN(C[C@@H](O)[C@H](Cc1ccccc1)NC(=O)O[C@H]1CO[C@H]2OCC[C@H]21)S(=O)(=O)c1ccc(-c2csc(NCCCN(C)C)n2)cc1,PR-L010F M046I M071V I084V,-,79
CC(C)CN(C[C@@H](O)[C@H](Cc1ccccc1)NC(=O)OCc1cncs1)S(=O)(=O)c1ccc2nc(N)oc2c1,PR-L010F M046I M071V I084V,LAI,14
CCc1c(C(C)c2c(F)cccc2F)nc(SC/C=C/c2ccc([N+](=O)[O-])cc2)[nH]c1=O,RT-Y181C,NNRTI-resistant,>1437500
CNc1nc2ccc(S(=O)(=O)N(CC(C)C)C[C@@H](O)[C@H](Cc3ccccc3)NC(=O)O[C@H]3CO[C@H]4OCC[C@H]43)cc2o1,PR-L010F M046I M071V I084V,LAI,1
CCc1c(C)[nH]c(=O)c(C2CC2)c1Oc1cc(C)cc(C)c1,RT-K103N,-,32
CCc1c(Cc2cc(C)cc(C)c2)n(COC/C=C/c2ccccc2)c(=O)[nH]c1=O,RT-K103N Y181C,NNRTI-resistant (RT K103N Y181C) A17,3333
CCc1c(Cc2c(Cl)cccc2Cl)nc(SC/C=C/c2ccc(C#N)cc2)[nH]c1=O,RT-Y188L,NNRTI-resistant,>20

Fold resistance: result on the changed form divided by that on wild type. Blank or dashed fields: not listed here.